Results reported in PMC8284666, “Biochemical characterization of protease activity of Nsp3 from SARS-CoV-2 and its inhibition by nanobodies” (PLoS ONE, 2021).

System: panel of 42 human DUBs and the viral ovarian tumor (vOTU)
Settings: tested at 10 and 1 μM; result in words

CC(Cc1ccc(O)c(O)c1)C(C)Cc1ccc(O)c(O)c1 (stereo not shown) [Nordihydroguaiaretic acid]
selectivity / off-target inhibition in the DUB panel: inhibited–at different extents–several other human DUBs
